{"source": "PubChem BioAssay AID540333", "about": "(Southern Research Specialized Biocontainment Screening …, 2011)", "note": "This is a selection; strong and weak results do not stand in their true shares. Calls of active or inactive are those of the source. No stated cut-off is given here; in the data, active means CPE inhibition mostly above about 9.1% (no sharp cut-off); inactive means mostly below about 7.2%.", "data": [{"test": "antivirals protecting cells from dengue CPE – CPE readout, HTS (AID 540333)", "settings": "Dengue virus CPE inhibition in host cells; at 20 µM; active compounds read high", "values": [{"compound": "CC(=O)NC(SC(=S)N(C)C)C(Cl)(Cl)Cl", "note": "(centres undefined)", "CPE inhibition": "inactive: 0%"}, {"compound": "CC(=O)NC(SC(=S)N(CC(C)C)CC(C)C)C(Cl)(Cl)Cl", "note": "(centres undefined)", "CPE inhibition": "inactive: 3.89%"}, {"compound": "Cc1cc(SC(NC(=O)c2ccccc2)C(Cl)(Cl)Cl)nc(C(C)C)n1", "note": "(centres undefined)", "CPE inhibition": "inactive: 0%"}, {"compound": "Cc1ccc(NCCc2c([N+](=O)[O-])cc([N+](=O)[O-])cc2[N+](=O)[O-])cc1", "CPE inhibition": "inactive: 6.13%"}]}]}
